How the values were obtained:
[1] = tested on: 3TC-resistant (184V) HIV-1 strain; experiment: endogenous viral RT assay of culture supernatant, HIV-1 infected human PBMC; assay type: cell-based
[2] = tested on: 3TC-resistant (184V) HIV-1 strain; experiment: real-time RT-PCR HIV-1 viral load in culture supernatant, infected human PBMC; assay type: cell-based
[3] = 184 V, RT assay, human PBMC, 5 days, read-out: EC50
[4] = 184 V, RT assay, human PBMC, 5 days, read-out: EC90
[5] = 184 V, real-time RT-PCR, human PBMC, 5 days, read-out: EC50
[6] = 184 V, real-time RT-PCR, human PBMC, 5 days, read-out: EC90
[7] = Human immunodeficiency virus 1, PBMC, 120 h

Nc1ccn([C@@H]2CS[C@H](CO)O2)c(=O)n1 [3TC]
EC50 [1, 3]: > 100 µM
EC90 [1, 4]: > 100 µM

Cc1cn([C@H]2C[C@H](N=[N+]=[N-])[C@@H](CO)O2)c(=O)[nH]c1=O [AZT]
EC50 [1, 3]: 0.013 µM
EC90 [1, 4]: 0.12 µM

Cc1cn([C@H]2C=C[C@@H](CO)O2)c(=O)[nH]c1=O [d4T]
EC50 [1, 3]: 0.032 µM
EC90 [1, 4]: 0.19 µM
EC50 [2, 5]: 0.00078 µM
EC90 [2, 6]: 0.19 µM

Nc1ccn([C@@H]2S[C@H](CO)C=C2F)c(=O)n1 [β-D-d4-2′F-(4-S-pentenyl)-C]
EC50 [1, 7]: > 100 µM
EC90 [1, 7]: > 100 µM
EC50 [2, 7]: 11.8 µM
EC90 [2, 7]: > 100 µM

Nc1ccn([C@H]2S[C@@H](CO)C=C2F)c(=O)n1 [β-L-d4-2′F-(4-S-pentenyl)-C]
EC50 [1, 7]: > 100 µM
EC90 [1, 7]: > 100 µM
EC50 [2, 7]: 0.091 µM
EC90 [2, 7]: 34.9 µM

(−)-FTC [(-) FTC]
EC50 [1, 3]: 65.1 µM
EC90 [1, 4]: 160 µM
EC50 [2, 5]: 0.34 µM
EC90 [2, 6]: > 100 µM

From patent US7919247B2, “Simultaneous quantification of nucleic acids in diseased cells” (Pharmasset, Inc., priority 2000, dated 2011)
